The values that follow are results of earlier work, collected in paper PMC4559355 (Journal of nuclear medicine : official publication, Society …, 2015).

For data set [1] the following is noted: mouse, in vivo; cited from earlier work.
Data set [2] has as its system DX3puroβ6 tumor (αvβ6-positive). The settings on record: mouse, in vivo, iv; cited from earlier work.

In the case of ^18F-FBA-A20FMDV2 [compound 1], the “Number of radioactive metabolites in urine” value in data set [1] was 3.
Take ^18F-FBA-PEG28-A20FMDV2 [compound 2]: the “Number of radioactive metabolites in urine” value in data set [1] is 1. The “Uptake in DX3puroβ6 tumor” value in data set [2] is 0.5 ± 0.1 %ID/g.
